Results on 5 molecules are retold here after patent US20240382586A1 (TAKIS S R L, published 2024).

Experiment [1] deals with T1, RBD-6His South African variant (SARS-CoV-2).
T1 construct: domain: RBD

For experiment [2], the target named is T2, RBD-6His Brazilian variant (SARS-CoV-2).
T2 construct: domain: RBD

Experiment [3] addresses SARS-CoV-2 spike, African variant B.1.351 (on pseudovirus) (SARS-CoV-2). Description: cell-based or functional assay.
Experiment [4] has as its target T1, RBD-6His South African variant. Description: ELISA, coated RBD-6His.
Experiment [5] addresses T2, RBD-6His Brazilian variant. As to the kind of experiment: ELISA, coated RBD-6His. (In general: In an ELISA, binding on a coated surface is turned into a signal by an enzyme label.)
In experiment [6] the target is T1, RBD-6His South African variant.
The target of experiment [7] is T2, RBD-6His Brazilian variant.
In experiment [8] the target is T3, RBD variant Indian (SARS-CoV-2).
T3 construct: domain: RBD
As to the kind of experiment: BLI affinity assay on RBD variants.

The target in experiment [9] is T4, RBD-6His Californian variant (SARS-CoV-2).
T4 construct: domain: RBD
Description: BLI affinity assay on RBD variants.

Experiment [10] addresses T5, RBD variant Delta (SARS-CoV-2).
T5 construct: domain: RBD
As to the kind of experiment: BLI affinity assay on RBD variants.

Experiment [11] concerns the target T6, RBD variant Omicron BA.1 (SARS-CoV-2).
T6 construct: domain: RBD
Description: BLI affinity assay on RBD variants.

Residue numbers refer to the chain shown, from its start. Where two headings read alike, the source gives them in different places. Where only a bound is given, the exact number is not on record here.

B1: 9-8F2-B11 (mouse) (antibody, V domains shown)
VH: EVQLQQSGAELVKPGASVKLSCTASGFNIKETYVHWVKQRPEQGLEWIGRIDPAIGDSEYDPKFQGKATVTADTSSNTAYLQLSRLTSEDTAVYYCARTWGPFFDFWGQGTTLTVSS
VL: DVVMTQTPLSLPVSLGDQASISCRSSQSLVHSHGNTFLHWYLQKPGQSPKVLIYKVSSRFSGVPDRFSGSGAGTDFTLKISRVEAEDLGVYFCSQSTHVPYTFGGGTKLEIK
By Kd is commonly meant the equilibrium constant for the complex coming apart. High values mean weaker binding, low ones tighter binding. The IC50 is the concentration that inhibits the measured activity by half. As for B1, the Kd in experiment [1] was 5.52 nM; in experiment [2], 1.31 nM. Moreover, the “IC50 (ng/ml), pseudovirus neutralisation, African B1.1.351” value in [3] amounted to 175 ng/mL. In addition, the IC50 in experiment [4] is 0.009 µg/mL; in experiment [5], 0.0144 µg/mL.

B2: 9-2H7-D7 (mouse) (antibody, V domains shown)
VH: EVQLQQSGPELVKPGASVTISCKTSGYTFTEYTMYWVKQSHGKSLEWIGGINPYIGDTSYNQNFKGKATLTVDKSSSTAYMELRSLTSEDSAVYYCARDGYPDYSAMDFWGQGTSVTVSS
VL: DIVMSQSPSSLAVSVGEKVTMNCKSSQNLLYSSNQKNYLAWYQQKPGQSPKLLIYWASTRESGVPDRFTGSGSGTDFTLTISSVKAEDLAVYSCQQYYTYPWTFGGGTKLEIK
For the molecule B2, the Kd in experiment [1] and in experiment [2] was under 0.001 nM throughout. Also, the “IC50 (ng/ml), pseudovirus neutralisation, African B1.1.351” value in [3] was 46 ng/mL. In addition, the IC50 in experiment [4] and in experiment [5] was 0.0195 µg/mL each time.

B3: 9-7A4-C2 (mouse) (antibody, V domains shown)
VH: EVQLQQSGPELVKPGASVKISCKTSGYTFTEYTMYWVKQSHGKSLEWIGGINPNNGDSSYIQKFKGKATLTVDESSSTAYMELRSLTSEDSAVYYCARDGYPNSYAMDYWGQGTSVTVSS
VL: B2 VL with E17D, N22S, N28S, S33T, S82G, K85R, A86P, S93Y, T99S
Regarding B3, the results for the Kd in experiment [1] and in experiment [2] were 4.51 nM and 1.62 nM, respectively. Besides, the IC50 in experiment [4] was determined as 0.0132 µg/mL; in experiment [5], 0.056 µg/mL.

B4: humanised 9-8F2-B11 (VH3VL3) (antibody, V domains shown)
VH: QVQLVQSGAEVKKPGASVKVSCKASGFNIKETYVHWVRQAPGQGLEWMGRIDPAIGDSEYAQKFQGRVTMTRDTSISTAYMELSRLRSDDTAVYYCARTWGPFFDFWGQGTLVTVSS
VL: DIVMTQTPLSLSVTPGQPASISCKSSQSLLHSHGNTFLHWYLQKPGQSPQVLIYKVSSRFSGVPDRFSGSGSGTDFTLKISRVEAEDVGVYYCSQSTHVPYTFGQGTKLEIK
notes: also called 9-8F2-B11 humanised
Regarding B4, the Kd came out at 18.2 nM in experiment [6] and 6.07 nM in experiment [7].

B5: 3-12B12-F4 (antibody, V domains shown)
VH: EVQLQQSGAELVRPGALVKLSCKASGFNIKDYYMHWVKQRPEQGLEWIGWIDPENGNSIYDPKFQGKASITADTSFNTVNLHLSSLTSEDTAVYYCAPYYYDSTYVGTMDYWGQGTSVTVSS
VL: QIVLTQSPAIMSASPGEKVTMTCSASSSVGYMYWYQQKPGSSPRLLIYDTSNLASGVPVRFGGSGSGTSYSLTISRMEAEDAATYYCQQWSSYPPRTFGGGTKLEIK
Consider B5, for which the Kd stood at 1.21 nM in experiment [8], 2.25 nM in experiment [9], 2.25 nM in experiment [10] and 1.21 nM in experiment [11].
